Anti-infective test results gathered from many reports (values: NIAID ChemDB through PubChem).

Shared fields: whole-cell or culture tests; organism: HIV-1; measure: EC50

a–b is a range or a potency band.

structure	read by	changes	cell line	strain or isolate	value
Cc1ccc(C)c(C(C)S(=O)(=O)c2ccc(C)c[n+]2[O-])c1	syncytia	-	MT-2	IIIB	23 µg/mL
O=C(NCC1CCCO1)c1ccc(C2=NN3C(C(=O)c4ccc(F)cc4)Oc4ccccc4C3C2)cc1	GFP / reporter gene	-	MT-4	LAI	1–10 µM
COc1cccc2c1nc(-c1ccccc1F)n2Cc1ccc(Cl)s1	-	-	MT-4	IIIB	0.063 µg/mL
CCc1c(Cc2ccc(OC)c(OC)c2)n(COCCc2ccccc2)c(=O)[nH]c1=O	MTT	Y181C	MT-4	N119	>73 µM
CCc1c(C(=O)c2cc(C)cc(C)c2)n(Cc2ccncc2)c(=O)[nH]c1=O	cytopathic effect / MTT	-	MT-4	-	0.0027 µg/mL
CCOCn1c(Cc2ccc(C)cc2)c(CC)c(=O)[nH]c1=O	MTT	K103R/V179D/P225H	MT-4	EFVR	>100 µM
Cc1cc(C)cc(Cc2c(I)c(=O)[nH]c(=O)n2COCc2ccccc2)c1	p24 / ELISA	Y181C	MT-4	A17	0.021 µM
COc1ncc(OC)c2c(C(=O)C(=O)N3CCC(=C(c4ccccc4)c4cccc([N+](=O)[O-])c4)CC3)c[nH]c12	luciferase	-	HeLa	-	<1 µM
C=CCN(C(=O)c1ccc(C2=NN3C(C(=O)c4ccc(F)cc4)Oc4ccccc4C3C2)cc1)C1CCCCC1	GFP / reporter gene	-	MT-4	LAI	1–10 µM
Cc1cc2[nH]cnc2cc1NC(=O)COc1ccc(Cl)cc1C(=O)c1cc(F)cc(C(F)(F)F)c1	β-galactosidase	RT-P236L	HeLa + HELA CD4+	HXB2	<0.01 µM
COc1cnc(-n2cnc(C)n2)c2[nH]cc(C(=O)C(=O)N3CCC(=C(c4ccccc4)c4nnc(C(C)(C)C)o4)CC3)c12	luciferase	-	HeLa	-	<1 µM
Cc1cc(Br)cc(C)c1OCC(=O)N[C@@H](Cc1ccccc1)[C@H](O)CN(CC(C)C)S(=O)(=O)c1ccc(-c2csc(N)n2)cc1	cytopathic effect / MTT	-	MT-4	LAI	5.012 µM
Cc1cc(S(N)(=O)=O)ccc1NC(=O)COc1ccc(Cl)cc1C(=O)c1cc(C#N)cc(C#N)c1	cytopathic effect / propidium iodide	-	MT-4	IIIB	<0.01 µM
CCc1c(C(=O)c2cc(C)cc(C)c2)n(Cc2ccccc2)c(=O)[nH]c1=O	cytopathic effect / MTT	-	MT-4	-	0.003 µg/mL
CCc1c(Cc2ccccc2)n(COCCc2ccccc2)c(=O)[nH]c1=O	MTT	-	MT-4	IIIB	0.4 µM
COc1cccc2c1nc(-c1ccccc1F)n2CC=C(C)C	-	-	MT-4	IIIB	0.0026 µg/mL
COc1cnc(-c2cc(C)[nH]n2)c2[nH]cc(C(=O)C(=O)N3CCC(=C(c4ccccc4)c4nnc(C)o4)CC3)c12	luciferase	-	HeLa	-	<1 µM
Cc1ccc(C)c(C(Cl)S(=O)(=O)c2cc(C)cc[n+]2[O-])c1	syncytia	-	CEM	IIIB	0.48 µg/mL
CCc1c(C(=O)c2cc(C)cc(C)c2)n(Cc2ccc([N+](=O)[O-])cc2)c(=O)[nH]c1=O	cytopathic effect / MTT	-	MT-4	-	0.009 µg/mL
Cc1cc(OCCCS(N)(=O)=O)ccc1NC(=O)COc1ccc(Cl)cc1C(=O)c1cc(F)cc(C(F)(F)F)c1	β-galactosidase	RT-V106A Y181C	HeLa + HELA CD4+	HXB2	0.011–0.1 µM
COc1cccc2c1nc(-c1ccccc1F)n2Cc1c(C)cccc1C	-	-	MT-4	IIIB	0.005 µg/mL
CC(=O)Nc1ncc(-c2ccc(S(=O)(=O)N(CC(C)C)C[C@@H](O)[C@H](Cc3ccccc3)NC(=O)O[C@H]3CO[C@H]4OCC[C@H]43)cc2)[nH]1	cytopathic effect / MTT	-	MT-4	LAI	0.02 µM
Cc1ccc(C)c(CSc2c(Cl)ccc[n+]2[O-])c1	syncytia	-	CEM	RF	0.16 µg/mL
Cc1cc2cn[nH]c2cc1NC(=O)COc1ccc(Cl)cc1C(=O)c1cccc(C#N)c1	β-galactosidase	RT-V108I Y181C	HeLa + HELA CD4+	HXB2	<0.01 µM
CCc1c(C(=O)c2ccccc2)n(Cc2ccncc2)c(=O)[nH]c1=O	cytopathic effect / MTT	-	MT-4	-	0.0606 µg/mL
COc1ccc(/C=C/c2cc(Cl)c3ccccc3n2)c(OC)c1	entry / luminescence	-	TZM-bl	VB59	4.21 µM
CN(C)CCCNC(=O)c1ccc(C2=NN3C(C(=O)c4ccc(F)cc4)Oc4ccccc4C3C2)cc1	GFP / reporter gene	-	MT-4	LAI	>10 µM
CCc1c(Cc2ccc(OC)c(OC)c2)n(COCCCc2ccccc2)c(=O)[nH]c1=O	MTT	-	MT-4	IIIB	>38 µM
Cc1ccc(C(C)S(=O)(=O)c2c(C)ccc[n+]2[O-])c(C)c1	syncytia	-	CEM	RF	7.7 µg/mL
Cc1cc(S(N)(=O)=O)ccc1NC(=O)COc1ccc(Cl)cc1C(=O)c1cc(F)cc(F)c1	β-galactosidase	RT-K103N P225H	HeLa + HELA CD4+	HXB2	<0.01 µM
COc1ncc(OC)c2c(C(=O)C(=O)N3CCC(=C(Br)c4ccccc4)CC3)c[nH]c12	luciferase	-	HeLa	-	<1 µM
Cc1cc(OCCCN2CCOCC2)ccc1NC(=O)COc1ccc(Cl)cc1C(=O)c1cccs1	β-galactosidase	RT-Y181C	HeLa + HELA CD4+	HXB2	0.011–0.1 µM
CC(C)CN(C[C@@H](O)[C@H](Cc1ccccc1)NC(=O)O[C@H]1CO[C@H]2OCC[C@H]21)S(=O)(=O)c1ccc(-c2cnc(NC(=O)O[C@H]3CO[C@H]4OCC[C@H]43)[nH]2)cc1	cytopathic effect / MTT	-	MT-4	LAI	0.2 µM
CN(C)c1ccc(NC(=O)c2ccc(C3=NN4C(C(=O)c5ccc(F)cc5)Oc5ccccc5C4C3)cc2)cc1	GFP / reporter gene	-	MT-4	LAI	<1 µM
COc1ccnc2[nH]cc(C(=O)C(=O)N3CCC(=C(C#N)c4ccccc4)CC3)c12	luciferase	-	HeLa	-	<1 µM
O=C(NC1CCCC1)c1ccc(C2=NN3C(C(=O)c4ccc(N5CCOCC5)cc4)Oc4ccccc4C3C2)cc1	GFP / reporter gene	-	MT-4	LAI	1–10 µM
CC(C)c1c(C(=O)c2cc(F)cc(F)c2)n(Cc2ccccn2)c(=O)[nH]c1=O	cytopathic effect / MTT	-	MT-4	-	0.053 µg/mL
COc1cnc(-c2ccc(C(N)=O)cc2)c2[nH]cc(C(=O)C(=O)N3CCC(=C(C#N)c4ccccc4)CC3)c12	luciferase	-	HeLa	-	<1 µM
COc1cccc2c1nc(-c1ccccc1F)n2Cc1ccc2ccccc2c1	-	-	MT-4	IIIB	>4 µg/mL
O=[N+]([O-])c1ccc[n+]([O-])c1SCc1ccccc1	syncytia	-	CEM	HE	10 µg/mL
CCc1c(C(=O)c2cc(C)cc(CF)c2)n(Cc2ccncc2)c(=O)[nH]c1=O	cytopathic effect / MTT	-	MT-4	-	0.003 µg/mL
COc1ccc(C)cc1CS(=O)(=O)c1cccc[n+]1[O-]	syncytia	RT-L100I	CEM	IIIB	40 µg/mL
Clc1ccc2nc(/C=C/c3ccccc3)cc(Cl)c2c1	luminescence	-	TZM-bl	UG070	50.3 µM
COc1cccc2c1nc(-c1ccccc1F)n2Cc1ccccc1F	-	-	MT-4	IIIB	0.019 µg/mL
Cc1cccc(CS(=O)(=O)c2cccc[n+]2[O-])c1	syncytia	-	CEM	RF	10 µg/mL
Cc1cccc(C)c1OCC(=O)N[C@@H](Cc1ccccc1)[C@H](O)CN(CC(C)C)S(=O)(=O)c1ccc(-c2csc(Nc3ccncc3)n2)cc1	cytopathic effect / MTT	-	MT-4	LAI	3.981 µM
CCc1c(Cc2ccccc2)n(COCCCc2ccccc2)c(=O)[nH]c1=O	MTT	K103N/Y181C	MT-4	A17	>23 µM
CCNc1nc(-c2ccc(S(=O)(=O)N(CC(C)C)C[C@@H](O)[C@H](Cc3ccccc3)NC(=O)COc3c(C)cccc3C)cc2)cs1	cytopathic effect / MTT	-	MT-4	LAI	5.012 µM
CCc1c(Cc2ccc(C)cc2)n(COCC2CC2)c(=O)[nH]c1=O	MTT	K103N/Y181C	MT-4	A17	>100 µM
COc1ccccc1Nc1nc(-c2ccc(S(=O)(=O)N(CC(C)C)C[C@@H](O)[C@H](Cc3ccccc3)NC(=O)COc3c(C)cc(Br)cc3C)cc2)cs1	cytopathic effect / MTT	-	MT-4	LAI	100 µM
O=C(c1ccc(F)cc1)C1Oc2ccccc2C2CC(c3ccc(C(=O)N4CCc5ccccc5C4)cc3)=NN12	GFP / reporter gene	-	MT-4	LAI	>10 µM
Cc1cc(S(N)(=O)=O)ccc1NC(=O)COc1ccc(Cl)cc1C(=O)c1cccc(C#N)c1	β-galactosidase	RT-P236L	HeLa + HELA CD4+	HXB2	0.011–0.1 µM
Clc1ccc2nc(/C=C/c3ccc(OCc4ccccc4)cc3)cc(Cl)c2c1	luminescence	-	TZM-bl	VB59	55.62 µM
CCCc1nc(-c2ccc(S(=O)(=O)N(CC(C)C)C[C@@H](O)[C@H](Cc3ccccc3)NC(=O)O[C@H]3CO[C@H]4OCC[C@H]43)cc2)co1	cytopathic effect / MTT	PR-L010F M046I M071V I084V	MT-4	-	0.876 µM
CCc1c(Cc2cc(C)cc(C)c2)n(COCCCc2ccccc2)c(=O)[nH]c1=O	MTT	-	MT-4	IIIB	0.05 µM
COc1cnc(-c2cnc(N)cn2)c2[nH]cc(C(=O)C(=O)N3CCC(=C(C#N)c4ccccn4)CC3)c12	luciferase	-	HeLa	-	<1 µM
Cc1cc(C#N)cc(C(=O)c2cc(Cl)ccc2OCC(=O)Nc2cnc(S(N)(=O)=O)cc2C)c1	β-galactosidase	RT-V106I	HeLa + HELA CD4+	HXB2	<0.01 µM
COc1ccc(/C=C/c2cc(Cl)c3cc(Cl)ccc3n2)c(OC)c1	luminescence	-	TZM-bl	VB59	0.53 µM
CNc1nc(-c2ccc(S(=O)(=O)N(CC(C)C)C[C@@H](O)[C@H](Cc3ccccc3)NC(=O)COc3c(C)cccc3C)cc2)cs1	cytopathic effect / MTT	-	MT-4	LAI	1.259 µM
Cc1cc(S(N)(=O)=O)ccc1NC(=O)COc1ccc(Cl)cc1C(=O)c1cc(F)cc(C(F)(F)F)c1	β-galactosidase	RT-V106A	HeLa + HELA CD4+	HXB2	0.011–0.1 µM
CN(CCNC(C)(C)C)C(=O)c1ccc(C2=NN3C(C(=O)c4ccc(F)cc4)Oc4ccccc4C3C2)cc1	GFP / reporter gene	-	MT-4	LAI	1–10 µM

3 of the rows above, restated:

structure,read by,changes,cell line,strain or isolate,value
O=[N+]([O-])c1ccc[n+]([O-])c1SCc1ccccc1,syncytia,-,CEM,HE,10 µg/mL
CC(=O)Nc1ncc(-c2ccc(S(=O)(=O)N(CC(C)C)C[C@@H](O)[C@H](Cc3ccccc3)NC(=O)O[C@H]3CO[C@H]4OCC[C@H]43)cc2)[nH]1,cytopathic effect / MTT,-,MT-4,LAI,0.02 µM
COc1cnc(-c2cc(C)[nH]n2)c2[nH]cc(C(=O)C(=O)N3CCC(=C(c4ccccc4)c4nnc(C)o4)CC3)c12,luciferase,-,HeLa,-,<1 µM

Neighbouring rows are from separate reports. ECn is the concentration giving n% inhibition of infection, replication or growth. An empty or dashed field is not shown.